A mixed list of measured activities; the numbers were collected in NIAID ChemDB.

Shared fields: tests in culture; agent: Mycobacterium tuberculosis

ECn is the concentration giving n% inhibition of infection, replication or growth. Inhibition is in % at the dose shown (toxicity tests: loss of growth or viability). A number after MIC or MFC names an inhibition level or a share of isolates. MIC bound: limit read from a one-dose screen. Conditions beyond the fields shown may differ between rows. An empty or dashed field is not shown.

structure,cell line,read by,changes,strain or isolate,tested at,read-out,value
CCCCS(=O)(=O)Nc1ccc2[nH]c(C(=O)NC3CCOCC3)c(C)c2c1,-,resazurin,-,H37Rv,-,MIC90,6.2 µM
C[C@H](c1ccccc1)N1C/C(=C/c2ccc(Cl)cc2Cl)[C@]2(ON=C(c3ccc(Cl)cc3)O2)C2(C1)ON=C(c1ccc(Cl)cc1)[C@H]2c1ccc(Cl)cc1Cl,-,-,-,MDR-TB,-,MIC,0.95 µM
COc1cccc2c1C(=O)c1c(O)c3c(c(O)c1C2=O)CC(O)(C(C)=O)CC3OC1CC(NCC2(O)OC(C(=O)NCCCN(C)C)C(O)C2O)C(O)C(C)O1,-,-,-,RMP-R,-,MIC,12.5 µg/mL
C[C@H]1COc2c(N3CC[C@H](N(C)C)C3)c(F)cc3c(=O)c(C(=O)O)cn1c23,-,-,-,Rifampicin-resistant (5 strains pooled),-,Mean MIC,9.5 µg/mL
CCCCS(=O)(=O)Nc1ccc2[nH]c(C#N)c(C)c2c1,-,resazurin,P206T DG167-resistant,DRM167 32x2,-,MIC90,>100 µM
CCOC(=O)C(Cc1c[nH]c2ccccc12)NC(=O)C1(O)C(O)C2(CC)C=CCN3CCC4(c5cc(C6(C(=O)OC)CC7CC(CC)CN(CCc8c6[nH]c6ccccc86)C7)c(OC)cc5N(C)C14)C32.CS(=O)(=O)O,-,BACTEC,-,H37Rv,-,MIC bound,>12.5 µg/mL
C(=N\NOCC12CC3CC(CC(C3)C1)C2)/c1cccnc1,-,luminescence,-,H37Rv,-,MIC,26.9 µg/mL
Cc1ccc([N+](=O)[O-])cc1NC(=O)Nc1cccc(Cl)c1,-,broth dilution / turbidity,-,-,-,MIC90,0.2 µg/mL
N#CC(N=Nc1ccc2ccccc2c1)C(N)=O,-,BACTEC,-,H37Rv,12.5 µg/mL,inhibition,30%
CC(=O)OC[C@@]12[C@H](CCC[C@]13CO3)C1C[C@@](C)(CCC3=CC(=O)OC3)[C@H](C)CC1C[C@@H]2O,-,-,-,H37Rv,-,MIC,>128 µg/mL
CCCCS(=O)(=O)Nc1ccc2[nH]c(C(=O)NC3CCC3)c(C)c2c1,-,resazurin,-,H37Rv,-,MIC90,1.56 µM
Nc1nnc2nc(CC(=O)c3ccc(F)cc3)c(CC(=O)c3ccc(F)cc3)nn12,-,BACTEC,-,H37Rv,-,MIC bound,>12.5 µg/mL
O=C(O)c1cn(-c2ccc([N+](=O)[O-])cc2F)c2cc(N3CCCCC3)c(F)cc2c1=O,-,BACTEC,-,H37Rv,6.25 µg/mL,inhibition,97%
CO[C@H]1/C=C/O[C@@]2(C)Oc3c(C)c(O)c4c(O)c(c5c(c4c3C2=O)NC2(CCN(C(C)C)CC2)N=5)=NC(=O)/C(C)=C\C=C\[C@H](C)[C@H](O)[C@@H](C)[C@@H](O)[C@@H](C)[C@H](OC(C)=O)[C@@H]1C,-,-,-,H37Rv,-,MIC,0.005 µg/mL
O=C(O)c1cn(-c2ccc([N+](=O)[O-])cc2)c2cc(N3CCOCC3)c(F)cc2c1=O,-,BACTEC,-,H37Rv,6.25 µg/mL,inhibition,6%
CCCCCCCCCCCCCCCC(=O)OCCc1ccc(OC)cc1,-,-,-,H37Rv (ATCC 27294),-,MIC,>128 µg/mL
Cc1cn2c(C(=O)NCc3ccc(N4CCN(c5ccc(C(F)(F)F)cn5)CC4)c(F)c3)c(C)nc2s1,Human liver microsomes,luminescence,-,H37Rv,-,EC50,18.4 µM
CCC(C)N1CCC2(CC1)N=c1c(c3c4c5c(C)c(O)c3c(O)c1=NC(=O)/C(C)=C\C=C\[C@H](C)[C@H](O)[C@@H](C)[C@@H](O)[C@@H](C)[C@H](OC(C)=O)[C@H](C)[C@@H](OC)/C=C/O[C@@](C)(O5)C4=O)N2,-,-,-,H37Rv,-,MIC,0.0025 µg/mL
CC1(C)C(=O)c2nc3ccccc3nc2-c2ccccc21,-,BACTEC,-,H37Rv,12.5 µg/mL,inhibition,72%
O=C(N/N=C/C12CC3CC(C1)CC(C1CCCC1)(C3)C2)c1ccncc1,-,luminescence,-,H37Rv,-,MIC,0.06 µg/mL
COc1cc2c3c(cc4cc5c(cc4c3c1OC)OCO5)N(C=O)CC2,-,resazurin,-,H37RvEr,-,MIC,>50 µg/mL
O=C(O)c1cn(-c2ccc([N+](=O)[O-])cc2F)c2cc(N3CCOCC3)c(F)cc2c1=O,-,BACTEC,-,H37Rv,6.25 µg/mL,inhibition,49%
COc1ccc2c(c1)OC[C@@H]1c3ccc(OCc4ccccc4)cc3O[C@H]21,-,BACTEC,-,H37Rv,-,MIC bound,>12.5 µg/mL
C[C@H](c1ccccc1)N1C/C(=C\c2ccc(Cl)cc2)[C@@]2(ON=C(c3ccc(Cl)cc3)O2)[C@@]2(C1)ON=C(c1ccc(Cl)cc1)[C@@H]2c1ccc(Cl)cc1,-,-,-,MDR-TB,-,MIC,1.03 µM
CCCCCCN1CCC2(CC1)N=c1c(c3c4c5c(C)c(O)c3c(O)c1=NC(=O)/C(C)=C\C=C\[C@H](C)[C@H](O)[C@@H](C)[C@@H](O)[C@@H](C)[C@H](OC(C)=O)[C@H](C)[C@@H](OC)/C=C/O[C@@](C)(O5)C4=O)N2,-,-,-,H37Rv,-,MIC,0.0012 µg/mL
O=c1[nH][nH]c(=O)c2c1nc(SC1CCCCC1)n2Cc1ccccc1,-,BACTEC,-,H37Rv,12.5 µg/mL,inhibition,0%
O=C(N/N=C/c1ccc(C2C3CC4CC(C3)CC2C4)cc1)c1ccncc1,-,luminescence,-,H37Rv,-,MIC,23 µg/mL
CCCCS(=O)(=O)Nc1ccc2[nH]c(C(=O)NCc3ccc(F)cc3F)c(C)c2c1,-,resazurin,-,H37Rv,-,MIC90,>100 µM
Cn1c(=O)c2c(ncn2CC[n+]2cccc(C(N)=O)c2)n(C)c1=O.[Cl-],-,BACTEC,-,H37Rv,12.5 µg/mL,inhibition,21%
O=C(N/N=C/C12CC3CC(C1)CC(/C=N/NC(=O)c1ccncc1)(C3)C2)c1ccncc1,-,luminescence,-,H37Rv,-,MIC,0.04 µg/mL
Cc1ccc(/C=C2/CN([C@H](C)c3ccccc3)CC3(ON=C(c4ccc(Cl)cc4)[C@H]3c3ccc(C)cc3)[C@@]23ON=C(c2ccc(Cl)cc2)O3)cc1,-,-,-,H37Rv,-,MIC,8.75 µM
C=CCn1c2ccccc2c2c(C)c3cnccc3c(C)c21,-,resazurin,-,H37Rv,6.25 µg/mL,inhibition,100%
CO[C@H]1/C=C/O[C@@]2(C)Oc3c(C)c(O)c4c(O)c(c5c(c4c3C2=O)NC2(CCN(C)CC2)N=5)=NC(=O)/C(C)=C\C=C\[C@H](C)[C@H](O)[C@@H](C)[C@@H](O)[C@@H](C)[C@H](OC(C)=O)[C@@H]1C,-,-,-,H37Rv,-,MIC,0.0025 µg/mL
N=c1ncn(C2CCOC2=O)c2nc[nH]c12,-,BACTEC,-,H37Rv,-,MIC bound,>12.5 µg/mL
CCCCCCCCCCCCCCCCCCC(=O)OCCc1ccc(O)cc1,-,-,-,H37Rv (ATCC 27294),-,MIC,>128 µg/mL
C[C@]1(COc2ccc(N3CCC(Oc4ccc(OC(F)(F)F)cc4)CC3)cc2)Cn2cc([N+](=O)[O-])nc2O1,-,-,-,H37Rv (PZA-resistant),-,MIC,0.012 µg/mL
C[C@H]1COc2c(N3CC[C@@H](CNC4CC4)C3)c(F)cc3c(=O)c(C(=O)O)cn1c23,-,-,-,Rifampicin-resistant (5 strains pooled),-,Mean MIC,1.7 µg/mL
CO[C@H]1/C=C/O[C@@]2(C)Oc3c(C)c(O)c4c(O)c(c(/C=N/N5CCN(C6CCCC6)CC5)c(O)c4c3C2=O)NC(=O)/C(C)=C\C=C\[C@H](C)[C@H](O)[C@@H](C)[C@@H](O)[C@@H](C)[C@H](OC(C)=O)[C@@H]1C,-,-,-,H37Rv (capreomycin-resistant),-,MIC,1.25 µg/mL
CN1CCN(c2cc3c(cc2F)c(=O)c(C(=O)O)cn3-c2ccc([N+](=O)[O-])cc2F)CC1,-,BACTEC,-,H37Rv,6.25 µg/mL,inhibition,0%
COc1c(N2C[C@@H]3CCCN[C@@H]3C2)c(F)cc2c(=O)c(C(=O)O)cn(C3CC3)c12,-,-,-,10 strains,-,MIC50,0.06 µg/mL
Cc1ccc2c(c1)Oc1nnc(Cl)cc1C(=O)N2CC1CCCCC1,-,BACTEC,-,H37Rv,12.5 µg/mL,inhibition,49%
CCCCCCCCCCCCCCCCCCCC(=O)OCCc1ccc(OC)cc1,-,-,-,H37Rv (ATCC 27294),-,MIC,>128 µg/mL
Cc1cc(=O)n2c(nc3ccccc32)s1,-,resazurin,-,H37Rv,6.25 µg/mL,inhibition,11%
CCCCCCCCCCCCCCCCCCC(=O)OCCc1ccc(OC)cc1,-,-,-,H37Rv (ATCC 27294),-,MIC,>128 µg/mL
CC(C)[C@@H](C)/C=C/[C@@H](C)[C@H]1CC[C@H]2C3=CC=C4C[C@@H](O)CC[C@]4(C)[C@H]3CC[C@]12C,-,-,-,H37Rv,-,MIC,>128 µg/mL
CCCCCCCN1C(=O)c2cc(Cl)nnc2Oc2cc(C)ccc21,-,BACTEC,-,H37Rv,12.5 µg/mL,inhibition,78%
COc1cc2c3c(c1OC)-c1cc4c(cc1CC3N(C=O)CC2)OCO4,-,resazurin,-,SIN452,-,MIC,>50 µg/mL
CCn1c(=O)c2ncnnc2n(CC)c1=O,-,BACTEC,-,H37Rv,12.5 µg/mL,inhibition,8%
C[C@H](c1ccccc1)N1CC(=Cc2cccc3ccccc23)[C@]2(ON=C(c3ccc(Cl)cc3)O2)C2(C1)ON=C(c1ccc(Cl)cc1)[C@H]2c1cccc2ccccc12,-,-,-,MDR-TB,-,MIC,0.99 µM
CCCCS(=O)(=O)Nc1ccc2[nH]c(C(N)=O)c(C)c2c1,-,resazurin,P206T DG167-resistant,DRM167 32x2,-,MIC90,>100 µM
CCCCCCCCCCCCCCCCC(=O)OCCc1ccc(OC)cc1,-,-,-,H37Rv (ATCC 27294),-,MIC,>128 µg/mL
NNC(=O)c1ccncc1,-,resazurin,-,STB-960,-,MIC,0.125 µg/mL
CN(C)/N=C1\C(=O)N(CCCl)c2cc(Cl)c(Cl)cc21,-,BACTEC,-,H37Rv,12.8 µg/mL,inhibition,44%
O=C(N/N=C/C12CC3CC(CC(C3)C1)C2)c1ccncc1,-,luminescence,-,H37Rv,-,MIC,0.04 µg/mL
CO[C@H]1/C=C/O[C@@]2(C)Oc3c(C)c(O)c4c(O)c(c(/C=N/N5CCN(C)CC5)c(O)c4c3C2=O)NC(=O)/C(C)=C\C=C\[C@H](C)[C@H](O)[C@@H](C)[C@@H](O)[C@@H](C)[C@H](OC(C)=O)[C@@H]1C,-,-,-,Rifampicin-sensitive (7 strains pooled),-,Mean MIC,4.3 µg/mL
C(=N\NOCC12CC3CC(C1)CC(CON/N=C/c1ccncc1)(C3)C2)/c1ccncc1,-,luminescence,-,H37Rv,-,MIC,>100 µg/mL
COc1ccc(NS(=O)(=O)c2ccc(NCc3c4ccccc4nc4ccccc34)cc2)nn1,-,BACTEC,-,H37Rv,-,MIC bound,>12.5 µg/mL
C[C@H]1COc2c(N3C[C@@H](N)C4(CCC4)C3)c(F)cc3c(=O)c(C(=O)O)cn1c23,-,-,-,Rifampicin-resistant (5 strains pooled),-,Mean MIC,1.1 µg/mL
O=C(O)c1cn(-c2ccc([N+](=O)[O-])cc2)c2cc(N3CCN(Cc4ccc5cccc(O)c5n4)CC3)c(F)cc2c1=O,-,BACTEC,-,H37Rv,6.25 µg/mL,inhibition,44%
CCCCCCN1C(=O)c2cc(Cl)nnc2Oc2cc(C)ccc21,-,BACTEC,-,H37Rv,-,EC50,<12.5 µg/mL
O=C(O)C(=O)O.OC(CNCCc1ccccc1)CN1c2ccccc2Sc2ccccc21,-,resazurin,-,STB-825,-,MIC,4 µg/mL
O=C(O)c1cn(-c2ccc([N+](=O)[O-])cc2F)c2cc(N3CCNCC3)c(F)cc2c1=O,-,BACTEC,-,H37Rv,6.25 µg/mL,inhibition,37%
Cc1cc(NC(=O)SCCOC(=O)COc2ccc(Cl)cc2)ccc1Cl,-,BACTEC,-,H37Rv,-,MIC bound,>12.5 µg/mL
CCCCCCCCCCCCCCCCCCCCCCCCC(=O)OCCc1ccc(O)cc1,-,-,-,H37Rv (ATCC 27294),-,MIC,>128 µg/mL
Nc1nc2ncn(O)c2c(=O)[nH]1,-,BACTEC,-,H37Rv,-,MIC bound,>12.5 µg/mL
C[C@H]1NCc2cc(-c3ccc4c(=O)c(C(=O)O)cn(C5CC5)c4c3OC(F)F)ccc21,-,-,-,10 strains,-,MIC50,2 µg/mL
CC(C)=NNC(=O)CNc1cccc(C(F)(F)F)c1,-,BACTEC,-,H37Rv,-,MIC bound,>12.5 µg/mL
CCCCS(=O)(=O)Nc1ccc2[nH]c(C(=O)Nc3cccc4ccccc34)c(C)c2c1,-,resazurin,-,H37Rv,-,MIC90,25 µM
CC(C)(C)OC(=O)NCCc1cccc2c1oc1c(CCC(=O)O)cccc12,-,BACTEC,-,H37Rv,-,MIC bound,>12.5 µg/mL
CCCCCCCCCN1C(=O)c2cc(Cl)nnc2Oc2ccc(Cl)cc21,-,BACTEC,-,H37Rv,12.5 µg/mL,inhibition,63%
COc1ccc(Cc2nnc3nc(OC)c(-c4ccc(OC)cc4)n3n2)cc1,-,BACTEC,-,H37Rv,12.5 µg/mL,inhibition,33%
Cc1c(F)c(N2CCNC(C)C2)cc2c1c(=O)c(C(=O)O)cn2C1CC1,-,-,-,-,-,MIC50,0.78 µg/mL
CCCCCCC(=O)OC[n+]1ccc2c(C)c3[nH]c4ccccc4c3c(C)c2c1,-,resazurin,-,H37Rv,6.25 µg/mL,inhibition,100%
C[C@H](c1ccccc1)N1C/C(=C/c2ccccc2Cl)[C@]2(ON=C(c3ccccc3)O2)C2(C1)ON=C(c1ccccc1)[C@H]2c1ccccc1Cl,-,-,-,H37Rv,-,MIC,4.56 µM